Compound potency records, mixed from different reports. Data source: NIAID ChemDB in PubChem.

All rows: host cell toxicity; cell line: MT-4; read by: luminescence; endpoint: CC50

CCn: concentration that lowers growth or viability of the cells by n%. Rows are shuffled and stem from different studies.

structure,value
CCCCCCCCCCCCCCCCOC(=O)OCOc1c2n(cc(C(=O)NCc3ccc(F)cc3F)c1=O)[C@@H]1CN(C2=O)[C@@H](C)CC[C@]12CC(C)=NO2,50 µM
CC1(C)CC=C(c2cn(-c3nccc(C(=O)NC4CCC(N5CC6CCC(C5)O6)CC4)n3)c3ccc(F)c([C@H](OC(C)(C)C)C(=O)O)c23)CC1,5.352 µM
CC1=N[C@]2(CC[C@H](C)N3C[C@H]2n2cc(C(=O)NCc4ccc(F)cc4F)c(=O)c(O)c2C3=O)ON1,50 µM
Cc1nc2ccccc2c(-c2cc(F)c3c(c2C)CCCO3)c1[C@H](OC(C)(C)C)C(=O)O,>10 µM
CCCCCCCCCCCC(=O)OCOc1c2n(cc(C(=O)NCc3ccc(F)cc3F)c1=O)[C@@H]1CN(C2=O)[C@@H](C)CC[C@]12CC(C)=NO2,50 µM
C[C@@H]1CO[C@]2(CC[C@H](C)N3C[C@H]2n2cc(C(=O)NCc4c(F)cc(F)cc4F)c(=O)c(O)c2C3=O)O1,32.6 µM
O=C(NCCCCCCN1CCCC2=C[C@@H]3C[C@@H](CN4CCCC[C@H]34)[C@@H]21)c1ccc(Br)c(C(F)(F)F)c1,>20 µM
C[C@H]1CC[C@]2(CC(=O)N(Cc3ccc4scnc4c3)O2)[C@H]2CN1C(=O)c1c(O)c(=O)c(C(=O)NCc3c(F)cc(F)cc3F)cn12,50 µM
O=C(NCCCCCCN1CCCC2=C[C@@H]3C[C@@H](CN4CCCC[C@H]34)[C@@H]21)c1c(F)cccc1F,>20 µM
C[C@H]1CC[C@@]2(CC(=O)N(C)C2)[C@H]2CN1C(=O)c1c(O)c(=O)c(C(=O)NCc3c(F)cc(F)cc3F)cn12,50 µM
O=C(NCCN1CCCC2=C[C@@H]3C[C@@H](CN4CCCC[C@H]34)[C@@H]21)c1cccc(F)c1,>80 µM
C[C@H]1CC[C@]2(CC(=O)N(Cc3cnn(C)n3)O2)[C@H]2CN1C(=O)c1c(O)c(=O)c(C(=O)NCc3c(F)cc(F)cc3F)cn12,50 µM
O=C(NCCCCN1CCCC2=C[C@@H]3C[C@@H](CN4CCCC[C@H]34)[C@@H]21)C(=O)c1ccc(C(F)(F)F)cc1,>20 µM
CCCCCCCCCOC(=O)OCOc1c2n(cc(C(=O)NCc3ccc(F)cc3F)c1=O)[C@@H]1CN(C2=O)[C@@H](C)CC[C@]12CC(C)=NO2,50 µM
O=C(NCCCCCCN1CCCC2=C[C@@H]3C[C@@H](CN4CCCC[C@H]34)[C@@H]21)c1c(F)cc(Cl)cc1F,>20 µM
CC1=NO[C@@]2(CC[C@H](C)N3C[C@H]2n2cc(C(=O)NCc4ccc(F)cc4F)c(=O)c(O[C@@H](C)OC(=O)OC(C)C)c2C3=O)C1,50 µM

Repeating the first 2 entries:

structure,value
CCCCCCCCCCCCCCCCOC(=O)OCOc1c2n(cc(C(=O)NCc3ccc(F)cc3F)c1=O)[C@@H]1CN(C2=O)[C@@H](C)CC[C@]12CC(C)=NO2,50 µM
CC1(C)CC=C(c2cn(-c3nccc(C(=O)NC4CCC(N5CC6CCC(C5)O6)CC4)n3)c3ccc(F)c([C@H](OC(C)(C)C)C(=O)O)c23)CC1,5.352 µM